Measurements taken from patent US8354498B2, “CD4 mimic peptides and their uses” (Commissariat a l'Energie Atomique, priority 2006, dated 2013).

Columns and labels:
HIV-1 Ba-L = assay: Dendritic cells assay: MO-DC/CD4+ T cell co-cultures, replication competent virus; assay type: cell-based; conditions: for Cmin, secondary culture, Day 28 (minimal concentration blocking infection): confirmed at Day 28; for EC50 range after 7 days of primary culture: Day 7
Method: Dendritic cell experiments were preformed with the replication-competent CCR5 co-receptor, using non-syncytium inducing, subtype B HIV-1 strain Ba-L whose infectious titer was determined on cultures of PHA/IL-2 stimulated PBMC.
Monocytes were separated from the buffy-coats of HIV seronegative blood donors by counter-flow elutriation and E-rosetting. They were subsequently differentiated to monocyte-derived dendritic cells (MO-DC) using GM-CSF and IL-4. […] After 30 minutes, 100 μl of MO-DC were added (4×10^5 cells/ml) and incubated for 2 h (37° C., 5% CO2). Afterwards, cells were washed 3 times and autologous CD4+ T cells were added, in the presence of compound. Co-cultures were incubated for 24 h, after which the cells were washed again (3 times) to remove the compound. Cells were incubated during 14 days of primary culture, during which half of the culture medium was refreshed twice weekly, without compound. At day 14, cultures were washed and PHA/IL-2 activated PBMC were added (2×10^5 cells/cup) to detect any latent or subliminal infection during a supplementary 14 days of secondary culture. Culture supernatants of primary (day 7 and day 14) and secondary (day 28) cultures were analyzed for the presence of HIV p24 Ag by a monoclonal p24 antibody (HuMab-HIVp24; BIOMARIC NV) enzyme-linked immunosorbant assay (ELISA).
Importantly, the replication-competent HIV-1 Ba-L reference strain, was used for these experiments. The virus was shortly pre-incubated with a dilution range of one of the compounds before addition of the MO-DC target cells. The compound remained present during infection and during the first 24 h of the co-culture of the MO-DC with the autologous CD4^+ T cells, but was washed away afterwards.

[1] = biological target: T1, gp120SF162 binding to CCR5+-CHO cells (Human immunodeficiency virus type 1 group M subtype B, UniProt P19550); assay: FACS analysis of gp120 binding to CCR5+-CHO cells in presence of CD4 mimics; assay type: cell-based, HIV-1; conditions: gp120SF162 pre-incubated with mini-protein
T1 construct: R5-tropic SF162 and Dual-tropic SF2 recombinant gp120s were produced in mammalian cells (CHO); made in house; host or cells: gp120: CHO; CCR5: transfected CHO-K1 cells
From the text: FIG. 7 illustrates the FACS analysis of the binding of recombinant envelope gp120 to CCR5^+-CHO cells in absence or in presence of various CD4-mimics, in comparison with soluble CD4.
FIG. 13 illustrates the FACS analysis of the binding of recombinant envelope gp120 to CCR5^+-CHO cells in absence or in presence of various CD4-mimics in comparison with soluble CD4.
FIG. 19 illustrates the FACS analysis of the binding of gp120SF162 to CCR5^+ CHO cells in absence or in presence of CD4M48 monomer or hetero-bivalent CD4M48−heparin. The ability of gp120 in complex with CD4M48 alone, CD4M48 covalently bound to heparin (noted M48−heparin), CD4M48 in presence of free LMW heparin (1:1) (noted M48+heparin) to bind to cellular co-receptor CCR5 was investigated.
Adherent CHO-K1 cells expressing CCR5 (Samson et al., Biochemistry, 1996, 35, 3362-3367; Blanpain et al., Blood, 2000, 96, 1638-1645) were used to analyze gp120SF162 conformational change in complex with different mini-proteins, by FACS (BECKTON DICKINSON). Briefly, 0.03 μg of gp120SF162 were pre-incubated overnight at 4° C. in absence or in presence of 10 nM CD4 or 10 nM mini-proteins and further added to 2×10^5 cells in HAM F12 supplemented with 10% SVF, 1% penicillin/streptomycin. After 1 h incubation at room temperature, cells were washed 3 times with phosphate buffer saline (PBS) containing 5% BSA. Bound gp120 was subsequently stained with D7324 antibody (AALTO BIO REAGENTS) washed and labeled with goat anti-sheep secondary antibody conjugated to phycoerythrin (PE) (R&D SYSTEMS). After final wash, cells were analyzed for envelope binding by FACS.

HIV-1 pseudovirus SF162 = assay: HIV single cycle pseudovirus assay in GHOST cells; assay type: cell-based
Method: (§1) For single-cycle infection experiments, HIV pseudoviruses representative of different HIV-1 subtypes were produced by co-transfection of 2×10^5 HEK293 (American Type Culture Collection) derived cells expressing the SV40 T antigen (HEK293 T), using the calcium phosphate method (ProFection® mammalian transfection system; PROMEGA). To this end, 1 μg of an HIV-1 env expressing vector under control of a CMV promoter, derived from pcDNA4/TO backbone vector (INVITROGEN) and 400 ng of the HIV-1 genomic vector (pNL4-3.Luc R^−E^−; National Institutes of Health AIDS Research and Reference Reagent program; catalogue number 3418), under control of the LTR promoter were used. pNL4-3.Luc R^−E^− contains the whole HIV genome, including a packaging signal, but has a frameshift in the env and vpr genes rendering it non-infectious. Furthermore a luciferase reporter gene replaces the nef gene. After 24 h, the medium was replaced with medium containing 1 mM sodium butyrate (SIGMA-ALDRICH) and the cells were further incubated for an additional 24 h. Afterwards, the supernatant with the pseudovirus was harvested, filtered (Millex 0.45 μm filters, MILLIPORE) and after adding Fetal calf serum (FCS; 10%) stored at −80° C. Pseudoviruses of different HIV-1 subtypes were created, including pseudoviruses derived from the subtype B, CCR5 co-receptor using strains Ba-L and SF162; the subtype B, CXCR4 co-receptor using strains Mn; the subtype C, CCR5 co-receptor using strains VI829, VI1358 and MJ4 and the CRF01_AE, CXCR4 co-receptor using strain CA10-3.
(§2) Fifty microliters of HIV pseudovirus were pre-incubated with 50 μl of a dilution series of a CD4 miniprotein or reference compound. After 15 minutes, 100 μl of GHOST target cells (AIDS REFERENCE AND REAGENT PROGRAM; 1.2×10^5 cells/ml) expressing CD4 and either of the HIV co-receptors CCR5 or CXCR4 were added to the 96-well cups containing the pre-treated pseudovirus. The GHOST cells were lysed 48 h post-infection by addition of the luciferin substrate (SteadyLite HTS, PERKIN ELMER LIFE SCIENCES). The resulting light signal, expressed as relative lights units (RLU), was quantified in a luminometer (Top Count™, CANBERRA-PACKARD).

HIV-1 pseudovirus CA10-3 = assay: HIV single cycle pseudovirus assay in GHOST cells; assay type: cell-based; conditions: pseudovirus CA10-3, CRF01_A/E, X4; read-out: antiviral activity EC50
Method: as §1, §2

gp120 Bal = assay: Direct binding by fluorescence anisotropy of Alexa-labeled mini-proteins; design: species or system HIV-1; conditions: Alexa labeled mini-protein 0.5 nM; gp120 Bal (R5-tropic); read-out: Dissociation constant (Kd)
Method: Binding assays by fluorescence anisotropy were made in a LJL Analyst (LJL BIOSYSTEMS) microplate reader using 384-wells plates. All peptides were diluted in 10 mM sodium phosphate buffer, pH 7.0, with 135 mM NaCl and 0.05% Tween 20.
Direct binding assays of fluorescent peptides were performed in triplicates by adding 10 μL of 0.5 nM Alexa-labeled mini-proteins and 10 μL of serial dilutions (two-thirds dilutions in 16 wells, starting at 200 nM) of gp120 SF2, SF162, BaL, IIIB and YU2. Collected data were fitted to the following equation using a non-linear regression program (Prism, GraphPad software Inc.):
[formula] where A, Af and Ab are respectively the measured, free and fully bounded anisotropy, Lt is the total labeled mini-protein concentration, Rt is the total gp120 concentration and Kd the thermodynamic dissociation constant. d) FACS Analysis of CD4M48-Induced Envelope Conformational Change

gp120 = conditions: cited from earlier work

Row | Compound | Cmin, secondary culture, Day 28 (minimal concentration blocking infection) (HIV-1 Ba-L) | Binding of gp120 to CCR5+-CHO cells induced by the mimic (conformational change of gp120) [1] | EC50 range after 7 days of primary culture (HIV-1 Ba-L) | EC50 (HIV-1 Ba-L; Day 14, read-out: EC50, primary culture, Day 14) | EC50 (HIV-1 pseudovirus SF162; pseudovirus SF162, subtype B, R5, read-out: antiviral activity EC50) | Enhancement of antiviral activity relative to M47 and M33 (HIV-1 pseudovirus SF162; single-cycle HIV-1 SF162 pseudovirus assay) | EC50 (HIV-1 pseudovirus CA10-3) | Kd (gp120 Bal) | Kd for different gp120s in competition with soluble CD4 (gp120)
1 | CC(C)C[C@@H]1NC(=O)CNC(=O)[C@H](CC(C)C)NC(=O)[C@H](CO)NC(=O)[C@H](CCCCN)NC(=O)[C@@H]2CSSC[C@@H](C(=O)N[C@H](C(N)=O)C(C)C)NC(=O)[C@H](C)NC(=O)[C@@H]3CSSC[C@H](NC(=O)[C@H](Cc4ccccc4)NC(=O)[C@H](Cc4c[nH]cn4)NC(=O)[C@H](CC(C)C)NC(=O)[C@H](CC(N)=O)NC(=O)CCSSC[C@H](NC(=O)[C@H](CCCNC(=N)N)NC(=O)CNC(=O)[C@H](CC(C)C)NC1=O)C(=O)N[C@@H](C)C(=O)N1CCC[C@@H]1C(=O)N[C@@H]([C@@H](C)O)C(=O)N[C@@H](Cc1ccc(OCCc4ccccc4)cc1)C(=O)N3)C(=O)N[C@@H](CCC(N)=O)C(=O)N[C@@H](CC(C)C)C(=O)N[C@@H](CCCNC(=N)N)C(=O)N2 [CD4M48_U3] | 6546 nM | – | – | – | – | – | – | – | –
2 | CC(C)C[C@@H]1NC(=O)CNC(=O)[C@H](CC(C)C)NC(=O)[C@H](CO)NC(=O)[C@H](CCCCN)NC(=O)[C@@H]2CSSC[C@@H](C(=O)N[C@H](C(N)=O)C(C)C)NC(=O)[C@H](C)NC(=O)[C@@H]3CSSC[C@H](NC(=O)[C@H](Cc4ccccc4)NC(=O)[C@H](Cc4c[nH]cn4)NC(=O)[C@H](CC(C)C)NC(=O)[C@H](CC(N)=O)NC(=O)CCSSC[C@H](NC(=O)[C@H](CCCNC(=N)N)NC(=O)CNC(=O)[C@H](CC(C)C)NC1=O)C(=O)N[C@@H](C)C(=O)N1CCC[C@@H]1C(=O)N[C@@H]([C@@H](C)O)C(=O)N[C@@H](Cc1ccc(OCC4CCCCC4)cc1)C(=O)N3)C(=O)N[C@@H](CCC(N)=O)C(=O)N[C@@H](CC(C)C)C(=O)N[C@@H](CCCNC(=N)N)C(=O)N2 [CD4M48_U1] | 66 nM | better ability to induce the conformational change of gp120 | nM range | 16 nM | 0.65 nM | 36 fold | 0.3 nM | – | –
3 | CC(C)C[C@@H]1NC(=O)CNC(=O)[C@H](CC(C)C)NC(=O)[C@H](CO)NC(=O)[C@H](CCCCN)NC(=O)[C@@H]2CSSC[C@@H](C(=O)N[C@H](C(N)=O)C(C)C)NC(=O)[C@H](C)NC(=O)[C@@H]3CSSC[C@H](NC(=O)[C@H](Cc4ccccc4)NC(=O)[C@H](Cc4c[nH]cn4)NC(=O)[C@H](CC(C)C)NC(=O)[C@H](CC(N)=O)NC(=O)CCSSC[C@H](NC(=O)[C@H](CCCNC(=N)N)NC(=O)CNC(=O)[C@H](CC(C)C)NC1=O)C(=O)N[C@@H](C)C(=O)N1CCC[C@@H]1C(=O)N[C@@H]([C@@H](C)O)C(=O)N[C@@H](Cc1ccc(OCCC4CCCC4)cc1)C(=O)N3)C(=O)N[C@@H](CCC(N)=O)C(=O)N[C@@H](CC(C)C)C(=O)N[C@@H](CCCNC(=N)N)C(=O)N2 [CD4M48_U2] | 656 nM | better ability to induce the conformational change of gp120 | – | – | – | – | – | – | –
4 | CC(C)C[C@@H]1NC(=O)CNC(=O)[C@H](CC(C)C)NC(=O)[C@H](CO)NC(=O)[C@H](CCCCN)NC(=O)[C@@H]2CSSC[C@@H](C(=O)N[C@H](C(N)=O)C(C)C)NC(=O)[C@H](C)NC(=O)[C@@H]3CSSC[C@H](NC(=O)[C@H](Cc4ccccc4)NC(=O)[C@H](Cc4c[nH]cn4)NC(=O)[C@H](CC(C)C)NC(=O)[C@H](CC(N)=O)NC(=O)CCSSC[C@H](NC(=O)[C@H](CCCCN)NC(=O)CNC(=O)[C@H](CC(C)C)NC1=O)C(=O)N[C@@H](C)C(=O)NCC(=O)N[C@@H](CO)C(=O)N[C@@H](Cc1ccc(-c4ccccc4)cc1)C(=O)N3)C(=O)N[C@@H](CCC(N)=O)C(=O)N[C@@H](CC(C)C)C(=O)N[C@@H](CCCNC(=N)N)C(=O)N2 [CD4M33, reference compound] | >3414 nM | intermediate fluorescence response | lower μM range | – | – | – | – | 6.36 ± 0.26 nM | nanomolar
